System: FIPV
Assay: Cotreatment (virucidal) assay, IPMA
Format: cell-based, feline infectious peritonitis virus

For `COc1ccc(-c2cc(=O)c3c(O)cc(O)c(-c4cc(-c5cc(=O)c6c(O)cc(O)cc6o5)ccc4OC)c3o2)cc1` [Isoginkgetin], the “EC50 of cotreatment greater than EC50 of post-viral entry experiment” value was “approximately 10 fold” and the “SI (cotreatment)” value (cotreatment, CC50/EC50) was 4.90.
